Measured values published in article PMC2871789, “Characterization of the Interaction and Cross-Regulation of Three Mycobacterium tuberculosis RelBE Modules” (PLoS ONE, 2010).

Molecular target: T1, 6xHis-RelJ (Rv3357), purified (M. tuberculosis, UniProt P9WF25 1-91)
T1 construct: also called his-tagged RelJ; pET-3357; not shown: His6, N-terminal, kept
T1 sequence: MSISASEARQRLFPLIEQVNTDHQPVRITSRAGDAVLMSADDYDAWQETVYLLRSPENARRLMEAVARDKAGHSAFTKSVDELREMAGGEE
Assay: pull-down
Conditions: both partners purified

B1: GST-RelK (Rv3358), purified (natural protein)
chain: not shown
notes: also called GST-tagged RelK; pGEX-3358
binding result: binds
